This experiment deals with VSV-PY>A4. The conditions noted are these: 8 h post-infection.

Each structure is given as a SMILES string. Where two headings read alike, the source gives them in different places.

Take `O=C(CN1CCCC(c2nc3ccccc3s2)C1)NC(=O)NCC(F)(F)F` (stereo not drawn) [Compound 1, 2-(3-(benzo[d]thiazol-2-yl)piperidin-1-yl)-N-((2,2,2-trifluoroethyl)carbamoyl) acetamide]: the “reduction of budding of VSV-PY>A4” value (10 μM) is on record as less than 2 fold.

`Cc1nc2ccccc2nc1SCC(=O)NC(=O)Nc1ccccc1` [Compound 5, 2-((3-methylquinoxalin-2-yl)thio)-N-(phenylcarbamoyl)acetamide]: the “reduction of budding of VSV-PY>A4” value reads like this: (0.1 μM) less than 2 fold; (0.5 μM) less than 2 fold.

Values taken from US10160756B2 (priority 2014, dated 2018).
